Percent effect of library compounds

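Whole-cell growth test on Mycobacterium tuberculosis, read after 4 days in a medium based on cholesterol and the lipid DPPC; the read-out is not stated. Concentration: 50 µM. Direction is inferred from retests: higher values go with more growth inhibition. About 69,000 compounds were tested under these conditions; 0.54% (about 370) showed 50% or more at least once.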

Values are the deposited “Percent Effect”, in %. The record does not define 0% and 100%; most values in the screen are far below 50% and negative numbers occur (in some assays of this library far below -100). This is part of a subset picked to be rich in strong results. Two or more numbers in one place are separate tests of the same structure; such repeats can differ widely.

SMILES,effect
O[C@@H]1CN(c2nc3ccccc3s2)CC[C@H]1c1ccc2c(c1)OCO2,27.13
Cc1ccc(NC2CCCN(CCCc3ccccc3)C2)nn1 (stereo unspecified),-21.92 and -4.598
Cc1cccc(CN2C[C@@H](CN3CCCN(C)CC3)C[C@H](CO)C2)n1,73.32
O=C(CNc1cccc(CC(F)(F)F)c1)NCc1ccco1,29.11
CC(=O)N[C@@H]1C[C@H](Cc2ccccc2)O[C@H](c2ccc(C(=O)O)cc2)C1,0.9148 and -6.625
COc1cc(CN2CCCC2)ccc1OC12CCCN(CC1)C2 (stereo unspecified),-13.04
COC(=O)[C@H](C)NC(=O)c1cc(-c2cccc(Cl)c2)no1,53.24
NCCn1nc(C2CCN(C(=O)Cc3ccccc3)C2)c2nccnc21 (stereo unspecified),58.99
CCn1nnc(NCc2ccccc2OCc2ccc(Cl)cc2)n1,49.1
CC(C)(C)CC(=O)N1CCC(c2nn(CCN)c3nccnc23)C1 (stereo unspecified),-4.648
Cc1cc(CNc2nccc(N)n2)c2[nH]c(C)c(C)c2c1,15.08
O=S(=O)(NCCNc1ccc(-n2cccc2)nn1)c1cccs1,68.32
O=C(c1coc(COc2cccc3cnccc23)n1)N1CCSCC1,-1.62 and 39.96
Br.O=C(CN(C1=NCCCC1)c1ccccc1)c1ccccc1,-12.03
CC(C)c1noc(CN(C)C(=O)c2ncn[nH]2)n1,-10.51
N#CCCN(Cc1ccco1)C(=O)CCCc1ccccc1,0.7005
Fc1ccc(CNCCn2cccn2)c(Cl)c1,2.696
O=C(c1cccc(NCc2cccc(F)c2)c1)N1CCC(O)CC1,2.565
Cc1ncc(CN(C)CC(O)c2ccc(Br)cc2)s1 (stereo unspecified),10.4
CN1CCCC(c2cncc(-c3cccc(C(F)(F)F)c3)n2)C1 (stereo unspecified),35.89
CC(C)n1cnc(C2CN(C)c3ccc(C(=O)NC4CCCC4)cc32)n1 (stereo unspecified),12.56 and -5.688
CCC1CN(C(=O)c2cc(CN(C)CCc3ccccc3)on2)CCO1 (stereo unspecified),-6.487
CC(CNC(=O)c1ccon1)Oc1cccc(Br)c1 (stereo unspecified),49.57 and 54.65
NC(=O)c1ccc(-n2ccnc2C2CC2)cc1N1CCCC1,-7.667
Cc1nc2c(c(N(C)C)n1)CCN(C(=O)CN1CCC(O)CC1)C2,-5.632
COc1ccc(-c2nc(CN3CC(n4cccn4)C3)no2)cc1,-3.33
CCN(CC)C(=O)CSc1nnc(CCNC(=O)OC(C)(C)C)o1,-17.24
Cc1nc(N(C)C)ncc1C(=O)NCCCn1nccc1C1CC1,-9.453 and -19.34
Cc1nc(NCc2cccnc2)c2c(n1)c(C)nn2C,-2.31
Cc1[nH]/c(=N\C(=O)c2csc(NC3CC3)n2)sc1C,-10.13
CCOc1ccccc1C(N)CC(C)C (stereo unspecified),4.347
O=C(C[S+]([O-])Cc1cccc(Cl)c1)NC1CCCC1 (stereo unspecified),-0.01221
CCc1ncc(CN(CCc2ccccc2)Cc2cccs2)cn1.O=C(O)CC(O)(CC(=O)O)C(=O)O,53.61 and 71.34
CC(NC(=O)C1=NN(C)C(=O)CC1)c1ccc(Cl)cc1 (stereo unspecified),5.8
CNC(=O)C(C)CN(C)C(=O)Nc1cc(F)cc(Br)c1 (stereo unspecified),-16.87
CC(C)CCNc1nnc(C(C)C)s1,44.14
CCCc1cc(=O)[nH]c(-n2nc(-c3cccs3)cc2N)n1,18.19
COCc1csc(NC(=O)NCc2ccc(C)s2)n1,0.8826
Cc1nsc(NC2CCOC3(CCCCC3)C2)n1 (stereo unspecified),34.5
C1CC(c2noc(C3CC3)n2)CN(CCOCC2CC2)C1 (stereo unspecified),3.754 and 0.3684
Cc1cc(-c2cnc(NCc3cccnc3)nc2C(C)C)on1,8.686
O=C(NCC1CC1)c1nnc2ccc(Cl)cc2n1,63.41
COc1ccc(NC(C)C(=O)NCCc2cccs2)cc1F (stereo unspecified),-20.91
CCc1c(C(=O)NC2CCS(=O)(=O)C2)cnn1-c1ccc(C)cc1 (stereo unspecified),-11.72
CC(C)Cc1cc(NC(=O)c2ccccc2F)n(C)n1,27.74
CCN1CCC(CNCc2c[nH]nc2C(C)(C)C)C1.Cl (stereo unspecified),53.32
O=C(NCCc1cc(=O)[nH]cn1)c1[nH]nc2c1CCCC2,-0.555
COc1ccccc1OCCCn1c(C)c(C)oc1=O,-8.411
COc1ccc(OC)c(CNCc2c(C(C)C)nn(C)c2N(C)C)c1,2.12
CC(NCc1ccc(OCC(N)=O)cc1)c1ccc(Cl)c(Cl)c1.Cl (stereo unspecified),34.66
CC(C)(C)C(=O)NS(=O)(=O)c1ccc(C#N)c(C(F)(F)F)c1,-2.219
OCC(O)CSCc1nnc(-c2ccc(Cl)cc2)o1 (stereo unspecified),7.999
CC(C)(C)c1n[nH]cc1CNCC1CCN(CC(F)(F)F)C1.Cl (stereo unspecified),10.52
O=C(CN1CCc2ccccc21)Nc1ccc(OC(F)F)cc1,16.63
CNC(=O)CS(=O)(=O)Cc1cc(Cl)c2c(c1)OCCO2,-5.351
CCCN1CCC(NC(=O)c2csc(C)c2-c2ccccc2)CC1,-1.118 and 2.454
Cc1ccc2cc(C(=O)N3CCS(=O)(=O)CC3)[nH]c2c1,-1.06
[H][C@@]12CC[C@H](Oc3ccccc3Cl)[C@]1([H])CN(C(=O)COCCOC)C2,-15.23
CCCc1cncnc1N1CCC(NCc2cc3ccccc3[nH]2)CC1,69.19
O=C(NC1CCCN(CCCc2ccccc2)C1)c1ccncc1 (stereo unspecified),6.528
O=C(Cc1cccs1)Nc1cnn(C2CCOCC2)c1,-0.03039
CCOc1ccc(Cl)cc1C1CCCN1.Cl (stereo unspecified),18.49
CN(Cc1nc(Cc2ccccc2F)no1)CC1Cc2ccccc2O1 (stereo unspecified),-3.866
CCc1nc(NCC2CCCN(C(=O)C3CC3)C2)c2cnn(C)c2n1 (stereo unspecified),7.483
COc1ccc(-c2ccccc2CCN)c(OC)c1OC,26.01
Cc1cc(CNc2cc(Cl)ccc2OCCS(C)(=O)=O)no1,7.347
Cc1cc2c(cc1Cl)C=CC1(CCN(CC(=O)NC3CCCC3)CC1)O2,35.37 and 53.95
CN(C)c1cc(C(=O)N2CCCC(n3cccn3)C2)ccn1 (stereo unspecified),15.07
COCc1nn(Cc2ccc(Br)s2)c(=O)o1,42.45
Cn1cccc(NC(=O)COc2ccc(Cl)cc2)c1=O,-6.796
COc1cnc(C2(O)CCN(C(=O)c3cccnc3)CC2)c(OC)n1,76.64
CCOCC1CCN(C(=O)C(c2c(F)cccc2F)N(C)C)CC1 (stereo unspecified),-23.43
COc1ccc2[nH]c(C(=O)NCC3(N)CCCC3)cc2c1,-3.292
Cc1nnc(CN(C)C(=O)C(CC(C)C)N2CCCCC2=O)n1C (stereo unspecified),14.37
O=C(NCc1csc(Br)c1)c1cnccn1,22.26
CNC(=O)[C@@H](C)NC(=O)c1cc(-c2ccc(F)cc2)c(C)s1,-5.599
Cc1cc(C(=O)N2CCN(c3nc4c(F)cccc4s3)CC2)no1,-8.468
CC(C)C[C@H](N)COc1cccc(F)c1Oc1ccccc1,15.45
COc1ccc(CNc2nc(C3CC3)no2)cc1OC,4.317 and -4.612
CCSc1nc2ccccc2c(=O)n1OCC(=O)OC,29.21
CC(=O)N(C)Cc1ccc(OCc2cccs2)cc1,27.4
COc1cc(Oc2ccc(C(F)(F)F)cn2)ccc1CN1CCCC1,54.32
N#Cc1ncn(CCC(=O)Nc2ccccc2F)n1,1.699
CC(=O)N(C)Cc1cccc(NC(=O)c2cnn(C)c2C)c1,-33.02
CS(=O)(=O)N1CCC(Nc2ccc(C#N)c(C(F)(F)F)c2)CC1,7.071
CC(C)N1CCN(C(=O)c2csc3nc(-c4ccc(Cl)cc4)cn23)CC1,23.93
CC(=O)c1ccc(NC(=O)N[C@H](C(=O)O)C(C)C)cc1,20.34
CCc1cc(N(C)Cc2ccnc(C)c2)n2nc(C)c(C)c2n1,-2.654
O=C(NCCn1ccnc1)c1ccn(-c2ccccc2)n1,-28.6
COc1ccc(C[C@H]2CNCC[C@@H]2OCC2CC2)cc1,5.063
COCc1ccc(C(=O)N2CCCN(Cc3ccc(F)cc3)CC2)s1,-3.687

Some entries from above, unchanged:

| SMILES | effect |
|---|---|
| `CNC(=O)CS(=O)(=O)Cc1cc(Cl)c2c(c1)OCCO2` | -5.351 |
| `O=C(NCCc1cc(=O)[nH]cn1)c1[nH]nc2c1CCCC2` | -0.555 |
| `Cc1cc(CNc2nccc(N)n2)c2[nH]c(C)c(C)c2c1` | 15.08 |
| `CC(C)C[C@H](N)COc1cccc(F)c1Oc1ccccc1` | 15.45 |
| `CC(C)(C)c1n[nH]cc1CNCC1CCN(CC(F)(F)F)C1.Cl` (stereo unspecified) | 10.52 |
| `O=S(=O)(NCCNc1ccc(-n2cccc2)nn1)c1cccs1` | 68.32 |
| `Cc1ccc2cc(C(=O)N3CCS(=O)(=O)CC3)[nH]c2c1` | -1.06 |
| `COC(=O)[C@H](C)NC(=O)c1cc(-c2cccc(Cl)c2)no1` | 53.24 |
| `Cc1cc2c(cc1Cl)C=CC1(CCN(CC(=O)NC3CCCC3)CC1)O2` | 35.37 and 53.95 |

Data taken from ChEMBL document CHEMBL3988442, “University of Dundee, Small-Polar-MMV Screening Library” (2021).